A mixed list of measured activities; the numbers were collected in NIAID ChemDB.

Common to all: tests in culture; species: Mycobacterium tuberculosis

MIC bound comes from a single tested concentration. Inhibition is in % at the dose shown (toxicity tests: loss of growth or viability). An empty or dashed field is not shown. Two numbers with a dash give a range or band. ECn: concentration that inhibits the pathogen or its effect by n%. Rows are shuffled and stem from different studies. A number after MIC or MFC names an inhibition level or a share of isolates.

SMILES	cells	changes	read by	measure	dose	strain	result
CCOC(=O)c1c(NC(=O)c2c(F)c(F)c(F)c(F)c2F)sc2c1CCNC2=O	-	-	turbidity	MIC	-	ATCC 35822	1.4 µM
Fc1cccc(CCNCCNC23CC4CC(CC(C4)C2)C3)c1	-	-	-	MIC	-	-	50 µM
O=C(CCC(=O)c1ccccc1)NC[C@H]1CN(c2ccc(-n3cncn3)c(F)c2)C(=O)O1	-	-	-	MIC	-	10 clinical isolates sensitive	1–2 µg/mL
Cn1c(=O)c2[nH]c(=O)c(=O)[nH]c2n(C)c1=O	-	-	BACTEC	inhibition	12.5 µg/mL	H37Rv	7%
C=C/C(C)=C/[C@@]1(C)SC(=O)C(C)=C1O	-	-	-	MIC	-	NHN113	20 µg/mL
C[C@H]1COc2c(N3CCN(C)CC3)c(F)cc3c(=O)c(C(=O)O)cn1c23	-	-	-	MIC	-	Strain 35	16 µg/mL
O=C(/C=C/C(=O)c1ccccc1)NC[C@H]1CN(c2ccc(N3CCOCC3)c(F)c2)C(=O)O1	-	-	-	MIC	-	10 clinical isolates sensitive	>16 µg/mL
CCNC(=O)c1c(NC(=O)c2c(F)c(F)c(F)c(F)c2F)sc2c1CCN(CC)C2	-	katG Y155 truncation mutant	turbidity	MIC	-	H37Rv	10 µM
CC(=O)c1c(OCc2ccccc2)cc2oc3cc(OCc4ccccc4)c(CCC(C)C)c(O)c3c(=O)c2c1CCC(C)C	-	-	resazurin	MIC	-	H37Ra	12.5 µg/mL
Clc1c(Cl)c(Cl)c2ccccc2c1Cl	-	-	-	MIC	-	H37Rv	>100 µg/mL
CCCCCCCCCCCNCCNCC(O)c1ccccc1	-	-	-	MIC	-	-	25 µM
Cc1ccc([As](=O)(O)O)cc1[N+](=O)[O-]	-	-	-	MIC	-	H37Rv	>100 µg/mL
O=C(/C=C/c1ccccn1)c1ccccn1	-	-	-	inhibition	12.5 µg/mL	H37Rv	42%
c1ccc2[nH]cnc2c1	-	-	-	MIC	-	H37Rv	>100 µg/mL
CC(=O)NC[C@H]1CN(c2ccc(N3CCN(c4ccc([N+](=O)[O-])s4)CC3)c(F)c2)C(=O)O1	-	-	-	MIC	-	PC	≤0.125 µg/mL
CCc1nc2ccccc2n1CCCCSc1ccc2ccccc2c1	-	-	turbidity / fluorescence	MIC99	-	H37Rv	4.1 µM
Cc1ccc2ccc(-c3ccc(N(C)C)cc3)nc2c1	-	-	-	MIC	-	H37Rv	>100 µg/mL
CC1=N/C(=C\c2cccs2)C(=O)O1	-	-	BACTEC	MIC bound	-	H37Rv	>12.5 µg/mL
CO[C@H]1/C=C/O[C@@]2(C)Oc3c(C)c(O)c4c(=O)c(c5oc6cc(N7CCN(C(C)C)CC7)cc(=O)c6nc5c4c3=C2O)NC(=O)/C(C)=C\C=C\[C@H](C)[C@H](O)[C@@H](C)[C@@H](O)[C@@H](C)[C@H](OC(C)=O)[C@@H]1C	-	-	-	MBC	-	29 (rifampin-resistant)	0.2 µg/mL
COc1ccc(CCNCCNCCc2ccc(Cl)cc2Cl)cc1OC	-	-	-	MIC	-	-	50 µM
CCCCS(=O)(=O)Nc1ccc(C(=O)NN)c(Cl)c1	-	-	BACTEC	inhibition	12.5 µg/mL	H37Rv	41%
CCCCOc1cc2oc3cc(O)c(CCC(C)C)c(O)c3c(=O)c2c(CCC(C)C)c1C(C)=O	-	-	resazurin	MIC	-	H37Ra	1.56 µg/mL
O=C1c2ccccc2C(=O)c2c(Nc3ccccc3)ccc(NCCO)c21	-	-	BACTEC	MIC bound	-	H37Rv	>12.5 µg/mL
Nc1cc(O)c(C(=O)O)cc1C(=O)O	-	-	-	MIC	-	H37Rv	100 µg/mL
Cn1c(=O)c2nc(-c3ccccc3)cnc2n(C)c1=O	-	-	BACTEC	MIC bound	-	H37Rv	>12.5 µg/mL
CCc1nc2ccccc2n1CCCCSc1nnc(-c2ccc(Cl)cc2)o1	-	WT	turbidity / fluorescence	MIC90	-	H37Rv	0.15 µM
c1ccc(COc2ccc3ccccc3n2)cc1	-	-	-	MIC	-	H37Rv	>100 µg/mL
CC1COc2c(N3CCN(C)CC3)c(F)cc3c(=O)c(C(=O)O)cn1c23	-	-	BACTEC	MIC	-	SMI 15	4 µg/mL
CC(=O)Nc1ccc(S(=O)(=O)C(F)(F)F)cc1	-	-	-	MIC	-	H37Rv	100 µg/mL
O=C(C=Cc1ccc(O)cc1)NCCc1c[nH]c2ccc(O)cc12	-	-	BACTEC	MIC	-	H37Rv	≥12.5 µg/mL
N[C@@H]1CN(c2c(F)cc3c(=O)c(C(=O)O)cn([C@@H]4C[C@@H]4F)c3c2Cl)CC12CC2	-	Gyrase Asp94Ala	resazurin	MIC	-	Clinical strain	0.0625–0.25 µg/mL
Cc1nn(C(=O)Cc2ccccc2)c2c1C(c1ccc(Cl)cc1)SC(N)=N2	-	-	BACTEC	MIC bound	-	H37Rv	>12.5 µg/mL
CCOc1cc2oc3cc(O)c(CCC(C)C)c(O)c3c(=O)c2c(CCC(C)C)c1OC	-	-	resazurin	MIC	-	M16	3.12 µg/mL
CN1CC(=O)N2CCCCC2C(c2ccccc2)C1	-	-	BACTEC	inhibition	12.5 µg/mL	H37Rv	-5%
CO[C@H]1/C=C/O[C@@]2(C)Oc3c(C)c(O)c4c(=O)c(c5oc6cc(N7CCN(CC(C)C)CC7)cc(=O)c6nc5c4c3=C2O)NC(=O)/C(C)=C\C=C\[C@H](C)[C@H](O)[C@@H](C)[C@@H](O)[C@@H](C)[C@H](OC(C)=O)[C@@H]1C	-	-	-	MIC	-	TN728	<1 µg/mL
CCCCCCCCCCCNCCNC1CCCC(C)C1C	-	-	-	MIC	-	-	25 µM
O=C(/C=C/c1ccccc1O)c1ccccc1	-	-	-	MIC	-	H37Rv	6.25 µg/mL
CC(=O)Nc1nccnc1C(N)=O	-	-	BACTEC	MIC bound	-	H37Rv	>12.5 µg/mL
Oc1ccc(CCNCCNCCc2ccc(Cl)cc2Cl)cc1	-	-	-	MIC	-	-	50 µM
O=C(/C=C/c1cccc(Cl)c1)c1ccccc1O	-	-	-	EC50	-	-	<12.5 µg/mL
CC(=O)Oc1cc2oc3cc(O)c(CC=C(C)C)c(O)c3c(=O)c2c(CC=C(C)C)c1C(C)=O	-	-	resazurin	MIC	-	H37Ra	12.5 µg/mL
C/C=C(/COC(C)=O)C(=O)OC1C=C(C=O)C(C)(C)C=C1C	-	-	BACTEC	MIC	-	H37Rv	≥12.5 µg/mL
O=C1NC(=O)C(c2ccccc2)C(=O)N1	-	-	-	MIC	-	H37Rv	>100 µg/mL
Cc1ccc(C(=S)CCC(=O)NC[C@H]2CN(c3ccc(N4CCOCC4)c(F)c3)C(=O)O2)cc1	-	-	-	MIC	-	ATCC 27294	>16 µg/mL
CCc1nc2ccc(C)cc2n1CCCCOc1ccccc1	-	Rv1339 V90M	turbidity / fluorescence	MIC90	-	H37Rv	1.7 µM
N#Cc1c(NC(=O)c2c(F)c(F)c(F)c(F)c2F)sc2c1CCOC2	-	-	turbidity	MIC	-	ATCC 35822	12 µM
O=S1(=O)OC(c2cc(Cl)c(O)c(Br)c2)(c2cc(Cl)c(O)c(Br)c2)c2ccccc21	-	-	BACTEC	inhibition	12.5 µg/mL	H37Rv	30%
CC(=O)Nc1ccc(S(=O)(=O)Nc2nccs2)cc1	-	-	-	MIC	-	H37Rv	>100 µg/mL
CO[C@H]1/C=C/O[C@@]2(C)Oc3c(C)c(O)c4c(=O)c(c5oc6cc(N7CCN(CC(C)C)CC7)cc(=O)c6nc5c4c3=C2O)NC(=O)/C(C)=C\C=C\[C@H](C)[C@H](O)[C@@H](C)[C@@H](O)[C@@H](C)[C@H](OC(C)=O)[C@@H]1C	-	-	-	MIC	-	27 (rifampin-resistant)	0.05 µg/mL
C[C@H](NCCNCC(c1ccccc1)c1ccccc1)[C@H](O)c1ccc(O)c(O)c1	-	-	-	MIC	-	-	3.13 µM
CCCCCCCCCCCCCCNC(=S)NCCCCCCCCCCCCCC	-	-	-	MIC	-	H37Rv	100 µg/mL
CCCOc1cc2oc3cc(O)c(CCC(C)C)c(O)c3c(=O)c2c(CCC(C)C)c1OC	-	MDR	resazurin	MIC	-	M5	3.12 µg/mL
CCCCN(CCNC[C@@H]1CC[C@H]2C[C@@H]1C2(C)C)Cc1ccccc1	-	-	-	MIC	-	-	50 µM
NCCNCCc1ccccn1	-	-	-	MIC	-	H37Rv	>100 µg/mL
CC(=O)C1=C(C)N2C(=NC3=C(CCc4ccccc43)C2c2cccc(Br)c2)S1	-	-	BACTEC	MIC bound	-	H37Rv	>12.5 µg/mL
COc1ccc2ccccc2c1/C=C(\C)C(=O)O	-	-	-	MIC	-	H37Rv	>100 µg/mL
Cc1ccc(NC(=O)c2cc(-c3ccccc3)sc2N)cc1	-	-	resazurin	MIC	-	H37Rv	>100 µg/mL
NNC(=O)c1ccncc1	-	-	-	MIC	-	Strain 158	0.06 µg/mL
CNC(C)Cc1cccs1.Cl	-	-	-	MIC	-	H37Rv	100 µg/mL
Nc1c(S(=O)(=O)O)cc2c3c(cccc13)C(=O)OC2=O	-	-	resazurin	inhibition	6.25 µg/mL	H37Rv	4%
COc1ccc(C(=O)/C=C/c2ccncc2)cc1	-	-	-	EC50	-	-	>12.5 µg/mL
CC1SC2=NC3=C(c4ccccc4C3=O)C(c3ccc(F)cc3)N2C1=O	-	-	BACTEC	inhibition	12.5 µg/mL	H37Rv	0%
CCN1CCc2c(sc(NC(=O)c3c(F)c(F)c(F)c(F)c3F)c2C(=O)NC)C1	-	katG Y155 truncation mutant	turbidity	EC50	-	H37Rv	1.6 µM
COc1ccc(N=C2C(=Nc3ccc(OC)cc3)N(c3ccccc3[N+](=O)[O-])C(=S)N2c2ccc(OC)cc2)cc1	-	-	BACTEC	MIC bound	-	H37Rv	>12.5 µg/mL
CC(C)=CCOc1c2ccoc2cc2oc(=O)ccc12	-	Isoniazid rifampicin ethambutol-resistant	resazurin	MIC100	-	H37Rv clinical isolate CRY6	100 µg/mL
CCN1CCc2c(sc(NC(=O)c3c(F)c(F)c(F)c(F)c3F)c2C(N)=O)C1	-	-	low oxygen	EC90	-	-	43 µM
CC(=N\N=C(N)N)/C(N=Nc1ccc(S(N)(=O)=O)cc1)=N/N=C(N)N	-	-	BACTEC	MIC bound	-	H37Rv	>12.5 µg/mL
COc1ccccc1NC(=O)c1c(N)sc2c1CCCC2	-	-	resazurin	MIC	-	H37Rv	100 µg/mL
CC(=O)c1c(OC(=O)c2ccccc2)cc2oc3cc(O)c(CC=C(C)C)c(O)c3c(=O)c2c1CC=C(C)C	-	-	resazurin	MIC	-	H37Ra	12.5 µg/mL
COc1ccc2nc(-c3cccc(Cl)c3)ccc2c1	-	-	-	MIC	-	H37Rv	>100 µg/mL
CO[C@H]1/C=C/O[C@@]2(C)Oc3c(C)c(O)c4c(O)c(c(C5SCCS5)c(O)c4c3C2=O)NC(=O)/C(C)=C\C=C\[C@H](C)[C@@H]2OC(C)(C)O[C@@H]([C@@H](C)[C@H](OC(C)=O)[C@@H]1C)[C@@H]2C	-	-	BACTEC	MIC bound	-	H37Rv	≤12.5 µg/mL
c1ccc(C(CCNCCN[C@H]2C[C@@H]3CC[C@H]2C3)c2ccccc2)cc1	-	-	-	MIC	-	-	3.13 µM
CCOC(=O)CONC(=O)c1ccccc1	-	-	-	MIC	-	H37Rv	6.25 µg/mL
CCc1nc2ccccc2n1CCCCNCc1ccccc1	-	-	turbidity / fluorescence	MIC99	-	H37Rv	>20 µM
CC(=O)c1c(O)c(C)c(O)c2c1OC1=CC(=O)/C(=C(\C)N)C(=O)C12C	-	-	BACTEC	inhibition	12.5 µg/mL	H37Rv	30%
CC12OC1C(=O)c1ccccc1C2=O	-	-	-	MIC	-	H37Rv	>100 µg/mL
CCOc1cc(O)c(C(=O)/C=C/c2ccccc2)c(OCC)c1	-	-	-	inhibition	12.5 µg/mL	H37Rv	0%
Nc1ccc(N=Nc2ccc(C(=O)O)cc2)cc1	-	-	-	MIC	-	H37Rv	100 µg/mL
COc1ccc(C(=O)N/N=C2\C(=O)c3c(C)cc(C)cc3CC2(C)C)cc1	-	-	BACTEC	MIC bound	-	H37Rv	>12.5 µg/mL
O=C(CCC(=O)c1ccc2ccccc2c1)NC[C@H]1CN(c2ccc(-n3cncn3)c(F)c2)C(=O)O1	-	-	-	MIC	-	10 clinical isolates resistant	2–8 µg/mL
C=CCN1CN(CC=C)CN(CC=C)C1	-	-	-	MIC	-	H37Rv	>100 µg/mL
CO[C@H]1/C=C/O[C@@]2(C)Oc3c(C)c(O)c4c(O)c(c(/C=N/N5CCN(C/C=C/c6ccccc6)CC5)c(O)c4c3C2=O)NC(=O)/C(C)=C\C=C\[C@H](C)[C@H](O)[C@@H](C)[C@@H](O)[C@@H](C)[C@H](OC(C)=O)[C@@H]1C	-	-	-	MIC	-	MTB1 (INH-R)	0.03 µg/mL
Cc1ccc(NC(=O)C(Cl)Cl)cc1Cl	VERO	-	BACTEC	MIC	-	H37Rv	12.5 µg/mL
COC(=O)CCCC(=O)O	-	-	-	MIC	-	H37Rv	100 µg/mL

Repeating the final 7 entries:

Nc1ccc(N=Nc2ccc(C(=O)O)cc2)cc1 ; measure: MIC ; strain: H37Rv ; result: 100 µg/mL
COc1ccc(C(=O)N/N=C2\C(=O)c3c(C)cc(C)cc3CC2(C)C)cc1 ; read by: BACTEC ; measure: MIC bound ; strain: H37Rv ; result: >12.5 µg/mL
O=C(CCC(=O)c1ccc2ccccc2c1)NC[C@H]1CN(c2ccc(-n3cncn3)c(F)c2)C(=O)O1 ; measure: MIC ; strain: 10 clinical isolates resistant ; result: 2–8 µg/mL
C=CCN1CN(CC=C)CN(CC=C)C1 ; measure: MIC ; strain: H37Rv ; result: >100 µg/mL
CO[C@H]1/C=C/O[C@@]2(C)Oc3c(C)c(O)c4c(O)c(c(/C=N/N5CCN(C/C=C/c6ccccc6)CC5)c(O)c4c3C2=O)NC(=O)/C(C)=C\C=C\[C@H](C)[C@H](O)[C@@H](C)[C@@H](O)[C@@H](C)[C@H](OC(C)=O)[C@@H]1C ; measure: MIC ; strain: MTB1 (INH-R) ; result: 0.03 µg/mL
Cc1ccc(NC(=O)C(Cl)Cl)cc1Cl ; cells: VERO ; read by: BACTEC ; measure: MIC ; strain: H37Rv ; result: 12.5 µg/mL
COC(=O)CCCC(=O)O ; measure: MIC ; strain: H37Rv ; result: 100 µg/mL